SMILES strings stand for the structures. *1 amine or outer side, *2 acyl side, *3 side chain or, on linkers, in order; H or OH if unused. Where a SMILES comes first, the peptide text is derived from it. [ ]: non-standard residue; d: D form. The star is where a group is joined. Fmoc = O=C(OCC1c2ccccc2-c2ccccc21)*; X1 = O=C(C(N[*:1])Sc1ccccc1)[*:2]

The data set deals with HIV-1 Bru. Format: cell-based. Conditions: therapeutic index, MT4 cells.

For `CC[C@H](C)[C@H](N)C(=O)N[C@@H](CCCNC(=N)N)C(=O)N[C@@H](CCCCN)C(=O)N[C@H](C(=O)N[C@@H](CC(C)C)C(=O)NC(Sc1ccccc1)C(=O)N[C@@H](CC(C)C)C(=O)N[C@@H](CC(=O)O)C(=O)NCC(N)=O)[C@@H](C)CC` (stereo partly drawn) [Compound 9, Ile-Arg-Lys-Ile-Leu-(S)Phe-Leu-Asp-Gly-NH2] (H-IRKIL[X1]LDG-NH2), the “TI (ID50/IC50)” value is 50.
As for `CC[C@H](C)[C@H](N)C(=O)N[C@@H](CCCNC(=N)N)C(=O)N[C@@H](CCCCN)C(=O)N[C@H](C(=O)N[C@@H](CC(C)C)C(=O)NC(Sc1ccccc1)C(=O)N[C@@H](CC(C)C)C(=O)N[C@@H](CC(=O)O)C(=O)NCC(=O)N[C@H](C(=O)O)[C@@H](C)CC)[C@@H](C)CC` (stereo partly drawn) [Compound 11, Ile-Arg-Lys-Ile-Leu-(S)Phe-Leu-Asp-Gly-Ile-OH] (H-IRKIL[X1]LDGI-OH), the figure is 10; as for `CC[C@H](C)[C@H](NC(=O)CNC(=O)[C@H](CC(=O)O)NC(=O)[C@H](CC(C)C)NC(=O)C(NC(=O)[C@H](CC(C)C)NC(=O)[C@@H](NC(=O)[C@H](CCCCN)NC(=O)[C@H](CCCNC(=N)N)NC(=O)[C@@H](NC(=O)OCC1c2ccccc2-c2ccccc21)[C@@H](C)CC)[C@@H](C)CC)Sc1ccccc1)C(=O)O` (stereo partly drawn) [Compound 10, Fmoc-Ile-Arg-Lys-Ile-Leu-(S)Phe-Leu-Asp-Gly-Ile-OH] (Fmoc-IRKIL[X1]LDGI-OH), 10.
